Pooled drug test results. Numbers come from NIAID ChemDB, via PubChem.

All rows: tests in culture; organism: Mycobacterium tuberculosis

Lines come from different laboratories, so protocols vary.

smiles | read by | changes | cells | tested at | strain | read-out | result
CCCCCCCCCCCC[N+]1(CCOC(=O)Nc2ccccc2OCCCCCC)CCCCC1 |  |  |  |  | My 331/88 | MIC | 8 µM
O=C(/N=C/c1ccccc1Cl)NCCCN1c2ccccc2Sc2ccccc21 | agar |  |  | 25 µg/mL | H37Rv | inhibition | 30%
CC1CCN(SSc2nc3ccccc3s2)CC1 | BACTEC |  | VERO |  | H37Rv | MIC | 12.5 µg/mL
c1ccc(-c2csc(Nc3cccnc3)n2)nc1 | visual reading |  |  |  | H37Rv | MIC | >20 µM
CCCCCCC1NC(=O)OC1=O | BACTEC |  |  |  | H37Rv | MIC bound | >12.5 µg/mL
c1ccc(-c2csc(NC3CCCCC3)n2)nc1 | visual reading |  |  |  | H37Rv | MIC | 20 µM
CCCCCCC[N+]1(CCOC(=O)Nc2ccccc2OCCCCCC)CCCCC1 |  |  |  |  | My 331/88 | MIC | 4 µM
Cc1cn([C@H]2C[C@H](Br)[C@@H](CO)O2)c(=O)[nH]c1=O |  |  |  |  | H37Ra | EC50 | 7.5 µg/mL
C=CCCCCn1c2ccccc2c2c(C)c3cnccc3c(C)c21 | resazurin |  |  |  | H37Rv | MIC bound | <6.25 µg/mL
CO[C@H]1/C=C/O[C@@]2(C)Oc3c(C)c(O)c4c(O)c(c(/C=N/N5CCN(C6CCCC6)CC5)c(O)c4c3C2=O)NC(=O)/C(C)=C\C=C\[C@H](C)[C@H](O)[C@@H](C)[C@@H](O)[C@@H](C)[C@H](OC(C)=O)[C@@H]1C |  |  |  |  | H37Rv (kanamycin-resistant) | MIC | 1.25 µg/mL
O=C(NCCCN1c2ccccc2Sc2ccccc21)N1C(=O)/C(=C\c2ccc(Br)cc2)SC1c1ccc(Br)cc1 | agar |  |  | 25 µg/mL | H37Rv | inhibition | 30%
C[N+]12CN3CN(C1)S(=O)(=O)N(C3)C2.[I-] | BACTEC |  |  |  | H37Rv | MIC | ≥12.5 µg/mL
O=C1CSC(c2cccc(Br)c2)N1C(=O)NCCCN1c2ccccc2Sc2ccccc21 | agar |  |  | 25 µg/mL | H37Rv | inhibition | 32%
Cc1ccc(C(Cn2ccnc2)OCc2ccc(-c3ccccc3)cc2)cc1 |  |  |  |  | CIP103471 | MIC | 2 µg/mL
CC(C)C(C(=O)O)N1C(=O)C2C3CCC(O3)C2C1=O | BACTEC |  |  | 12.5 µg/mL | H37Rv | inhibition | 14%
CC1(C)CC[C@]2(C(=O)O)CC[C@]3(C)C(=CC[C@@H]4[C@]56CCC(O)(OC5)C(C)(C)[C@@H]6CC[C@]43C)[C@@H]2C1 |  |  |  |  | H37Rv | MIC | >80 µg/mL
COc1cc(/C=C2/CC(c3ccc(Cl)cc3)=NNC2=O)ccc1O | resazurin |  |  |  | H37Rv | MIC | 6.25 µg/mL
CCCCCCOc1ccccc1NC(=O)OCC[N+]1(CCC)CCCCC1 |  |  |  |  | My 331/88 | MIC | 16 µM
CCOC(=O)c1ccc(NC(=O)c2ccc(OC)cc2O)cc1 |  |  |  |  | CNCTC MY331/88 | MIC | 4 µM
O=C1CSC(c2cccc(Cl)c2)N1C(=O)NCCCN1c2ccccc2Sc2ccccc21 | agar |  |  | 50 µg/mL | H37Rv | inhibition | 60%
CC(=O)c1c(-c2ccccc2)c(-c2ccccc2)n2ccc(C#N)cc12 |  |  |  |  | H37Rv | EC50 | >6.25 µg/mL
Cc1ccc(C(Cn2ccnc2)OC/C=C/c2ccccc2)cc1 |  |  |  |  | CIP103471 | MIC | 4 µg/mL
O=C(OCCN1CCN(CCCN2c3ccccc3Sc3ccc(C(F)(F)F)cc32)CC1)C12CC3CC(CC(C3)C1)C2 | BACTEC |  |  | 12.5 µg/mL | H37Rv | inhibition | 50%
N#Cc1ccn2c(-c3ccccc3)c(-c3ccccc3)c(C(=O)c3ccccc3)c2c1 |  |  |  |  | H37Rv | EC50 | >6.25 µg/mL
NCC(=O)N/N=C/c1ccc([N+](=O)[O-])o1 | BACTEC |  |  |  | H37Rv | MIC | ≥12.5 µg/mL
O=C(/N=C/c1ccccc1[N+](=O)[O-])NCCCN1c2ccccc2Sc2ccccc21 | agar |  |  | 25 µg/mL | H37Rv | inhibition | 38%
O=C(Nc1nc(-c2ccccn2)cs1)C1CC1 | visual reading |  |  |  | H37Rv | MIC | >20 µM
Cc1c(NC(=O)C(C)Sc2nnc(-c3ccco3)n2C2CCCCC2)c(=O)n(-c2ccccc2)n1C | resazurin |  |  | 6.25 µg/mL | H37Rv | inhibition | 66%
Cc1ccc(NCCN(C)C)c2c(=O)c3cc(O)ccc3oc12 |  |  |  |  | H37Rv | MIC | 12.5 µg/mL
Cc1ccc2c(c1)nc1cc(Nc3ccc(Cl)cc3)c(=NC3CCCCCCC3)cc-1n2-c1ccc(Cl)cc1 |  |  |  |  | Kurono | MIC | 0.1 µg/mL
Cc1c(NC(=O)CSc2nnc(-c3ccco3)n2-c2ccccc2)c(=O)n(-c2ccccc2)n1C | resazurin |  |  | 6.25 µg/mL | H37Rv | inhibition | 5%
CO[C@H]1/C=C/O[C@@]2(C)Oc3c(C)c(O)c4c(O)c(c(C=Nc5c(C)n(C)n(-c6ccccc6)c5=O)c(O)c4c3C2=O)NC(=O)/C(C)=C\C=C\[C@H](C)[C@H](O)[C@@H](C)[C@@H](O)[C@@H](C)[C@H](OC(C)=O)[C@@H]1C |  |  |  |  | H37Rv | MIC | >50 µg/mL
CN(C)c1ccc(NC(=O)c2cc([N+](=O)[O-])ccc2O)cc1 |  |  |  |  | CNCTC MY331/88 | MIC | 31 µM
Cc1ccc(S(=O)(=O)Nc2cc(S(=O)(=O)O)c(N)c3c2C(=O)c2ccccc2C3=O)cc1 | BACTEC |  |  |  | H37Rv | MIC bound | >12.5 µg/mL
N#Cc1ccn2c(-c3ccccc3)c(-c3ccccc3)c(Br)c2c1 |  |  |  |  | H37Rv | EC50 | <6.25 µg/mL
O=C(Nc1cccc(Cl)c1)c1cc(Br)ccc1O |  |  |  |  | CNCTC MY331/88 | MIC | 8 µM
COC(=O)c1onc(-c2c(OC)cc(OC)cc2OC)c1C(=O)OC | resazurin |  |  | 6.25 µg/mL | H37Rv | inhibition | 1%
Cc1ccc([N+](=O)[O-])cc1NC(=O)COc1ccc([N+](=O)[O-])c(F)c1 | broth dilution |  |  |  | H37Rv | MIC | 64 µg/mL
O=C(c1ccncc1)N1C(c2ccccc2)=C(c2ccccc2)Sc2nnc(-c3ccccc3Cl)n21 |  |  |  |  |  | MIC | 100 µg/mL
O=c1ccn([C@@H]2O[C@H](CO)[C@@H](Br)[C@@H]2O)c(=O)[nH]1 |  |  |  | 24 µg/mL | H37Ra | inhibition | 100%
O=C1NN=C(c2ccc(Cl)cc2)C/C1=C/c1ccc(O)cc1 | resazurin |  |  |  | H37Rv | MIC | 12.5 µg/mL
O=C1CSc2nnc(-c3ccccc3)n2N1C(=O)c1ccncc1 |  |  |  |  |  | MIC | 10 µg/mL
Cc1c(NC(=O)CSc2nnc(-c3ccco3)n2C2CCCCC2)c(=O)n(-c2ccccc2)n1C | resazurin |  |  |  | H37Rv | MIC | >6.25 µg/mL
CC[C@H]1OC(=O)[C@H](C)C(=O)[C@H](C)[C@@H](O[C@@H]2O[C@H](C)C[C@H](N(C)C)[C@H]2O)[C@](C)(OC)C[C@@H](C)C(=O)[C@H](C)[C@H]2N(CCCCn3cnc(-c4cccnc4)c3)C(=O)O[C@]12C |  |  |  |  | Isolate 900145 | MIC | >40 µg/mL
O=C1CCCC2=C1C(c1ccc(Cl)cc1)C1=C(CCCC1=O)O2 | resazurin |  |  |  | H37Ra | MIC | ≥0.4 µg/mL
COc1ccc(/C=C2/CC(c3ccc(Cl)cc3)=NNC2=O)cc1 | resazurin |  |  |  | H37Rv | MIC | 25 µg/mL
Cc1ccc(C)c(N2C/C(=N\NC(=O)CC#N)C(c3nc4ccccc4s3)C(=O)C2=O)c1 | BACTEC |  |  |  | H37Rv | MIC bound | >12.5 µg/mL
O=C(Nc1ccc(Cl)c(Cl)c1)c1cc([N+](=O)[O-])ccc1O |  |  |  |  | CNCTC MY331/88 | MIC | 8 µM
O=C1O/C(=C(/C(=O)O)c2ccc(O)cc2)C(O)=C1c1cc2c3c(c(O)cc(C4=C(O)/C(=C(\C(=O)O)c5ccc(O)cc5)OC4=O)c3c1)OC2=O | BACTEC |  |  | 12.5 µg/mL | H37Rv | inhibition | 8%
O=C1CCCC2=C1C(c1ccccn1)C1=C(CCCC1=O)O2 | resazurin |  |  |  | H37Ra | MIC | ≥0.8 µg/mL
CCc1ccc([C@H]2C[C@@H](C(F)(F)F)n3ncc(C(=O)NCc4ccc(OC)cc4)c3N2)cc1 | fluorescence | MmpL3: Val713Met |  |  | H37Rv | fold resistance | >70
COc1cc2c(cc1OC)C1CC(OC(=O)c3ccccc3)(c3nccc4cc(OC)c(OC)cc34)CCN1CC2 | BACTEC |  |  |  | H37Rv | MIC bound | >12.5 µg/mL
Clc1ccc(C(Cn2ccnc2)OCc2ccc(-c3ccccc3)cc2)cc1 |  |  |  |  | CIP103471 | MIC | 2 µg/mL
Cc1c(NC(=O)CSc2nnc(-c3ccco3)n2C)c(=O)n(-c2ccccc2)n1C | resazurin |  |  | 6.25 µg/mL | H37Rv | inhibition | inactive
Cc1ccc(C(O)c2c(-c3ccccc3)c(-c3ccccc3)n3ccc(C#N)cc23)cc1 |  |  |  |  | H37Rv | EC50 | <6.25 µg/mL
O=C1CSc2nnc(Cc3ccccc3)n2N1C(=O)c1ccncc1 |  |  |  |  |  | MIC | 100 µg/mL
O=c1[nH]c(=O)n(C2CCOC2)cc1Br | BACTEC |  |  |  | H37Rv | MIC bound | >12.5 µg/mL
CO[C@H]1/C=C/O[C@@]2(C)Oc3c(C)c(O)c4c(O)c(c(C=Nc5ccc(C(=O)O)c(O)c5)c(O)c4c3C2=O)NC(=O)/C(C)=C\C=C\[C@H](C)[C@H](O)[C@@H](C)[C@@H](O)[C@@H](C)[C@H](OC(C)=O)[C@@H]1C |  |  |  |  | H37Rv | MIC | >50 µg/mL
COc1ccc(C(O)c2c(-c3ccccc3)c(-c3ccccc3)n3ccc(C#N)cc23)cc1 |  |  |  |  | H37Rv | EC50 | <6.25 µg/mL
O=C1CSC(c2cccc(O)c2)N1C(=O)NCCCN1c2ccccc2Sc2ccccc21 | agar |  |  | 25 µg/mL | H37Rv | inhibition | 34%
CCCCCOc1ccccc1NC(=O)OCC[N+]1(CCCC)CCCCC1 |  |  |  |  | My 331/88 | MIC | 125 µM
Cc1ccc(NC(=O)C(=O)C2C(=O)C3=C(CC2(C)C)NC2C=CC=CC2S3)c(C)c1 | BACTEC |  |  | 12.5 µg/mL | H37Rv | inhibition | 6%
Cc1ccc(C(=O)Nc2ccc(Cl)c(Cl)c2)c(O)c1 |  |  |  |  | CNCTC MY331/88 | MIC | 8 µM
Clc1ccc(C(Cn2ccnc2)OCc2cccc3ccccc23)c(Cl)c1 |  |  |  |  | CIP103471 | MIC | 1 µg/mL
CC(C)=CCO[C@@H]1CC(C)(C)C[C@H]2C3=CC[C@@H]4[C@]56CCC(O)(OC5)C(C)(C)[C@@H]6CC[C@@]4(C)[C@]3(C)CC[C@@]12C(=O)O |  |  |  |  | H37Rv | MIC | 73 µg/mL
Cc1c(NC(=O)C(C)Sc2nnc(-c3ccco3)n2-c2ccc(Cl)cc2)c(=O)n(-c2ccccc2)n1C | resazurin |  |  | 6.25 µg/mL | H37Rv | inhibition | 1%
C=CC(C)(C)c1c(OC(C)=O)cc2oc3c(OC(C)=O)c(OC(C)=O)cc(CC=C(C)C)c3c(=O)c2c1O | BACTEC |  |  |  | H37Rv | MIC | ≥12.5 µg/mL
COc1ccc(C2C3=C(CCCC3=O)OC3=C2C(=O)CCC3)cc1 | resazurin |  |  |  | H37Ra | MIC | ≥1.6 µg/mL
Cc1cccc(/C=C2/SC(c3cccc(C)c3)N(C(=O)NCCCN3c4ccccc4Sc4ccccc43)C2=O)c1 | agar |  |  | 25 µg/mL | H37Rv | inhibition | 18%
CN(CCN(C)C(=O)CCn1cc(F)c(=O)[nH]c1=O)C(=O)CCn1cc(F)c(=O)[nH]c1=O | resazurin |  |  | 6.25 µg/mL | H37Rv | inhibition | 62%
CCCCCCOc1ccccc1NC(=O)OCC[N+]1(C)CCCCC1 |  |  |  |  | My 331/88 | MIC | 62.5 µM
C[CH2][Sn]([Cl])([Br])[CH2]C.c1cnc2c(c1)ccc1cccnc12 | BACTEC |  |  | 12.5 µg/mL | H37Rv | inhibition | 98%
CCCCCCOc1ccccc1NC(=O)OCC[N+]1(CCCC)CCCCC1 |  |  |  |  | My 331/88 | MIC | 16 µM
CCCNC(=O)OCC1=C(COC(=O)NCCC)C2OC1C(C(=O)OC)=C2C(=O)OC | BACTEC |  |  | 12.5 µg/mL | H37Rv | inhibition | 16%
O=C1CSC(c2ccc(Br)cc2)N1C(=O)NCCCN1c2ccccc2Sc2ccccc21 | agar |  |  | 50 µg/mL | H37Rv | inhibition | 68%
Cc1ccc(C2C3=C(CCCC3=O)OC3=C2C(=O)CCC3)cc1 | resazurin |  |  |  | H37Ra | MIC | ≥0.4 µg/mL
N#Cc1ccn2c(-c3ccccc3)c(-c3ccccc3)c(C=O)c2c1 |  |  |  |  | H37Rv | EC50 | >6.25 µg/mL
CCCCCOc1ccccc1NC(=O)OCC[N+]1(CC)CCCCC1 |  |  |  |  | My 331/88 | MIC | 1000 µM
Nc1ccc(-c2nnc3n2N(C(=O)c2ccncc2)C(c2ccccc2)=C(c2ccccc2)S3)cc1 |  |  |  |  |  | MIC | 100 µg/mL
CCCCCC[N+]1(CCOC(=O)Nc2ccccc2OCCCCC)CCCCC1 |  |  |  |  | My 331/88 | MIC | 32 µM
COC(=O)C1(NC(=O)[C@H](CC(=O)OCc2ccccc2)NC(=O)OCc2ccccc2)CCCCCCC1 | resazurin |  |  |  | H37Rv | MIC bound | >6.25 µg/mL
CC(=O)Nc1nc(-c2ccccn2)cs1 | visual reading |  |  |  | H37Rv | MIC | >20 µM

Again, the opening 5 rows:

smiles,read by,changes,cells,tested at,strain,read-out,result
CCCCCCCCCCCC[N+]1(CCOC(=O)Nc2ccccc2OCCCCCC)CCCCC1,,,,,My 331/88,MIC,8 µM
O=C(/N=C/c1ccccc1Cl)NCCCN1c2ccccc2Sc2ccccc21,agar,,,25 µg/mL,H37Rv,inhibition,30%
CC1CCN(SSc2nc3ccccc3s2)CC1,BACTEC,,VERO,,H37Rv,MIC,12.5 µg/mL
c1ccc(-c2csc(Nc3cccnc3)n2)nc1,visual reading,,,,H37Rv,MIC,>20 µM
CCCCCCC1NC(=O)OC1=O,BACTEC,,,,H37Rv,MIC bound,>12.5 µg/mL

MIC bound: limit read from a one-dose screen. Percent inhibition refers to the dose given; in toxicity tests it is the harm to the cells. For "inactive" no cut-off is given. An empty or dashed field is not shown. ECn is the concentration giving n% inhibition of infection, replication or growth. Fold resistance has wild type as its base.